Assay results: patent US20210346356A1, “INHIBITING UBIQUITIN SPECIFIC PEPTIDASE 9X” (FORMA THERAPEUTICS, INC., priority 2018, published 2021)

Test system: SEB-exhausted human PBMCs
Assay: IFNγ production in SEB-exhausted human PBMCs (Example 1)
Type: cell-based
Settings: SEB-stimulated PBMCs, rested 2 days with agent; FIG. 1, FIG. 3A

CNC[C@H](C(=O)N1CC2=C(C1)CN(S(=O)(=O)c1ccc3c(c1)OCCO3)C2)c1cccc(Cl)c1 [USP9X Inhibitor 3, (2R)-2-(3-chlorophenyl)-1-[5-(2,3-dihydro-1,4-Benzodioxine-6-sulfonyl)-1H,2H,3H,4H,5H,6H-pyrrolo[3,4-c]pyrrol-2-yl]-3-(methylamino)propan-1-one]
Production of IFNγ: promoted IFNγ secretion
